Reference: PubChem BioAssay AID624099 (ICCB-Longwood, 2012)
Purpose: 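Human genes that papillomavirus E2 requires to repress the HPV18 LCR promoter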 (primary screen). Cell system: human C33A cervical carcinoma cells (HPV-negative) stably expressing BPV1 E2 and an HPV18 LCR luciferase reporter. Reagent: siRNA pool against human genes, 40 nM. Timing: 72 h. Read-out: 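Per-well luciferase luminescence, z-scored on each plate against the plate mean and SD with control wells left out, then averaged across three replicate plates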. Reading the numbers: mean z-score and z-score: higher = stronger reporter signal, weaker E2 silencing. Hit rule: 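Mean z ≥ 2 together with z ≥ 2 in two or more of the three replicates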.
The deposit covers about 21,000 reagents; below is a random part of them. Over the whole deposit, 497 (2.4%) are marked active. 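Higher z means weaker E2 silencing; only reporter increases were scored, and knock-downs that hurt cell survival may mask genuine repressor factors.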 Reagents against one gene are numbered here.

gene symbol | reagent | mean z-score | z-score, replicate A | z-score, replicate B | z-score, replicate C | activity call
MRPL48 (mitochondrial ribosomal protein L48) | 1 | 0.84 | 0.92 | 0.83 | 0.77 | inactive
TMOD2 (tropomodulin 2) | 1 | 2.29 | 2.69 | 2.21 | 1.99 | active
PLEKHG1 (pleckstrin homology and RhoGEF domain containing G1) | 1 | -1.73 | -1.74 | -1.81 | -1.63 | inactive
LOC286297 | 1 | -0.72 | -0.06 | -1.05 | -1.06 | inactive
LINC00877 (long independently transcribed non-coding RNA 877) | 1 | 0.17 | 0.06 | -0.05 | 0.5 | inactive
ANG (angiogenin) | 1 | 1.11 | 0.73 | 1.36 | 1.23 | inactive
HES5 (hes family bHLH transcription factor 5) | 1 | -0.98 | -1.14 | -0.34 | -1.45 | inactive
CDC37L1 (cell division cycle 37 like 1, HSP90 cochaperone) | 1 | -0.62 | -0.88 | -0.61 | -0.37 | inactive
BBS1 (Bardet-Biedl syndrome 1) | 1 | -0.53 | -0.54 | -0.4 | -0.65 | inactive
MACROD1 (mono-ADP ribosylhydrolase 1) | 1 | -0.4 | -0.56 | -0.7 | 0.06 | inactive
LINC02906 (long independently transcribed non-coding RNA 2906) | 1 | -0.14 | -0.24 | -0.33 | 0.14 | inactive
LOC388270 (retired record) | 1 | -1.65 | -1.3 | -1.4 | -2.24 | inactive
TCEA1 (transcription elongation factor A1) | 1 | -1.22 | -1.17 | -1.27 | -1.2 | inactive
DNAJA2 (DnaJ heat shock protein family (Hsp40) member A2) | 1 | -0.25 | -0.35 | -0.17 | -0.23 | inactive
ICAM3 (intercellular adhesion molecule 3) | 1 | 0.21 | 0.17 | 0.01 | 0.46 | inactive
RPA1 (replication protein A1) | 1 | 0.94 | 0.92 | 1.05 | 0.86 | inactive
HIPK1 (homeodomain interacting protein kinase 1) | 1 | 0.31 | -0.04 | 0.38 | 0.6 | inactive
RAD51D (RAD51 paralog D) | 1 | -0.81 | -0.93 | -0.69 | -0.81 | inactive
DMAC2L (distal membrane arm assembly component 2 like) | 1 | 0.59 | 0.55 | 0.83 | 0.37 | inactive
CTLA4 (cytotoxic T-lymphocyte associated protein 4) | 1 | -0.33 | -0.25 | -0.32 | -0.43 | inactive
PCAT4 (prostate cancer associated transcript 4) | 1 | -0.05 | 0.28 | 0.02 | -0.45 | inactive
GSTT4 (glutathione S-transferase theta 4) | 1 | 0.35 | 0.34 | 0.47 | 0.25 | inactive
SFTPA2B (retired record) | 1 | 1.03 | 1.17 | 0.88 | 1.03 | inactive
OR5I1 (olfactory receptor family 5 subfamily I member 1) | 1 | -0.59 | -0.41 | -0.87 | -0.5 | inactive
UBE2E1 (ubiquitin conjugating enzyme E2 E1) | 1 | 0.66 | 0.46 | 0.77 | 0.76 | inactive
ZNF367 (zinc finger protein 367) | 1 | 0.02 | -0.22 | 0.13 | 0.16 | inactive
UPP1 (uridine phosphorylase 1) | 1 | 1.6 | 1.27 | 1.96 | 1.58 | inactive
UFSP2 (UFM1 specific peptidase 2) | 1 | 1.63 | 1.47 | 1.73 | 1.67 | inactive
PP2D1 (protein phosphatase 2C like domain containing 1) | 1 | 0.03 | 0.11 | 0.1 | -0.13 | inactive
TBC1D12 (TBC1 domain family member 12) | 1 | -0.98 | -0.87 | -1.14 | -0.93 | inactive
FAM117A (family with sequence similarity 117 member A) | 1 | -2.35 | -2.01 | -1.95 | -3.1 | inactive
ZCCHC10 (zinc finger CCHC-type containing 10) | 1 | -1.29 | -1.14 | -1.46 | -1.29 | inactive
VAV2 (vav guanine nucleotide exchange factor 2) | 1 | 0.08 | 0.06 | -0.08 | 0.27 | inactive
SPHK1 (sphingosine kinase 1) | 1 | 3.03 | 3.94 | 2.69 | 2.45 | active
KDM6A (lysine demethylase 6A) | 1 | 0.63 | 0.51 | 0.7 | 0.68 | inactive
MVD (mevalonate diphosphate decarboxylase) | 1 | 0.6 | 0.54 | 0.55 | 0.7 | inactive
SERPIND1 (serpin family D member 1) | 1 | -1.07 | -0.72 | -1.31 | -1.18 | inactive
LOC392084 (retired record) | 1 | -0.33 | -0.35 | -0.56 | -0.06 | inactive

8 entries from above, reformatted:
LINC00877 (long independently transcribed non-coding RNA 877) — mean z-score: 0.17; z-score, replicate A: 0.06; z-score, replicate B: -0.05; z-score, replicate C: 0.5; activity call: inactive
ANG (angiogenin) — mean z-score: 1.11; z-score, replicate A: 0.73; z-score, replicate B: 1.36; z-score, replicate C: 1.23; activity call: inactive
HES5 (hes family bHLH transcription factor 5) — mean z-score: -0.98; z-score, replicate A: -1.14; z-score, replicate B: -0.34; z-score, replicate C: -1.45; activity call: inactive
CDC37L1 (cell division cycle 37 like 1, HSP90 cochaperone) — mean z-score: -0.62; z-score, replicate A: -0.88; z-score, replicate B: -0.61; z-score, replicate C: -0.37; activity call: inactive
BBS1 (Bardet-Biedl syndrome 1) — mean z-score: -0.53; z-score, replicate A: -0.54; z-score, replicate B: -0.4; z-score, replicate C: -0.65; activity call: inactive
MACROD1 (mono-ADP ribosylhydrolase 1) — mean z-score: -0.4; z-score, replicate A: -0.56; z-score, replicate B: -0.7; z-score, replicate C: 0.06; activity call: inactive
LINC02906 (long independently transcribed non-coding RNA 2906) — mean z-score: -0.14; z-score, replicate A: -0.24; z-score, replicate B: -0.33; z-score, replicate C: 0.14; activity call: inactive
LOC388270 (retired record) — mean z-score: -1.65; z-score, replicate A: -1.3; z-score, replicate B: -1.4; z-score, replicate C: -2.24; activity call: inactive

More records:
gene symbol | reagent | mean z-score | z-score, replicate A | z-score, replicate B | z-score, replicate C | activity call
LRRC4B (leucine rich repeat containing 4B) | 1 | 1.2 | 0.7 | 1.85 | 1.05 | inactive
GLRX3 (glutaredoxin 3) | 1 | -0.23 | -0.33 | -0.15 | -0.19 | inactive
SNRPE (small nuclear ribonucleoprotein polypeptide E) | 1 | -1.03 | -1.23 | -0.95 | -0.89 | inactive
IGSF21 (immunoglobin superfamily member 21) | 1 | -0.13 | -0.11 | -0.18 | -0.1 | inactive
SLC2A3P2 | 1 | 0.92 | 0.73 | 1.05 | 0.97 | inactive
ADPRHL1 (ADP-ribosylhydrolase like 1) | 1 | -2.03 | -2.13 | -1.93 | -2.04 | inactive
HSF2 (heat shock transcription factor 2) | 1 | -0.45 | -0.51 | -0.37 | -0.48 | inactive
ADAMTS20 (ADAM metallopeptidase with thrombospondin type 1 motif 20) | 1 | -0.66 | -0.43 | -0.77 | -0.78 | inactive
PFN1 (profilin 1) | 1 | -0.42 | -0.42 | -0.35 | -0.48 | inactive
NLRP5 (NLR family pyrin domain containing 5) | 1 | 0.25 | 0.11 | 0.34 | 0.29 | inactive
NDUFAF3 (NADH:ubiquinone oxidoreductase complex assembly factor 3) | 1 | -0.67 | -0.67 | -0.46 | -0.89 | inactive
TMEM132B (transmembrane protein 132B) | 1 | -1.55 | -1.75 | -1.26 | -1.65 | inactive
TMEM132B (transmembrane protein 132B) | 2 | 0.9 | 0.84 | 0.76 | 1.12 | inactive
GSTM1 (glutathione S-transferase mu 1) | 1 | 1.14 | 0.27 | 1.93 | 1.24 | inactive
FAM193A (family with sequence similarity 193 member A) | 1 | 0.29 | 0.25 | 0.21 | 0.4 | inactive
OR2A2 (olfactory receptor family 2 subfamily A member 2) | 1 | -1.73 | -1.95 | -2.03 | -1.21 | inactive
TTC39C (tetratricopeptide repeat domain 39C) | 1 | -0.02 | 0.11 | -0.25 | 0.09 | inactive
LOC390511 (retired record) | 1 | -0.35 | -0.42 | 0.05 | -0.67 | inactive
ANO9 (anoctamin 9) | 1 | -1 | -1.21 | -0.54 | -1.26 | inactive
SMC1B (structural maintenance of chromosomes 1B) | 1 | 0.24 | 0.7 | 0.38 | -0.37 | inactive
TACR1 (tachykinin receptor 1) | 1 | -0.24 | -0.08 | -0.77 | 0.14 | inactive
PPP1R17 (protein phosphatase 1 regulatory subunit 17) | 1 | 0.54 | 0 | 0.9 | 0.73 | inactive
DGKA (diacylglycerol kinase alpha) | 1 | 1.77 | 1.97 | 1.73 | 1.59 | inactive
CDC37 (cell division cycle 37, HSP90 cochaperone) | 1 | 0.95 | 0.82 | 0.82 | 1.22 | inactive
IGFBP4 (insulin like growth factor binding protein 4) | 1 | -0.68 | -0.27 | -0.77 | -1.01 | inactive
OR6C74 (olfactory receptor family 6 subfamily C member 74) | 1 | -0.14 | -0.46 | 0.6 | -0.55 | inactive
KIAA1614 | 1 | 1.99 | 1.38 | 2.32 | 2.27 | inactive
AR (androgen receptor) | 1 | -0.96 | -0.96 | -0.99 | -0.93 | inactive
SLC6A14 | 1 | 0.55 | 0.7 | 0.69 | 0.27 | inactive
IL20RB (interleukin 20 receptor subunit beta) | 1 | -1.38 | -0.78 | -1.52 | -1.86 | inactive
FAM149A (family with sequence similarity 149 member A) | 1 | -0.9 | -0.96 | -0.87 | -0.86 | inactive
SFRP4 (secreted frizzled related protein 4) | 1 | -1.26 | -1.25 | -1.07 | -1.46 | inactive
RAB40AL (RAB40A like) | 1 | -0.14 | 0.17 | -0.22 | -0.36 | inactive
RAB27A (RAB27A, member RAS oncogene family) | 1 | 0.57 | 0.75 | 0.44 | 0.52 | inactive
NCF2 (neutrophil cytosolic factor 2) | 1 | -1 | -0.83 | -1.15 | -1.01 | inactive
